Source: PubChem BioAssay AID504761 (Drosophila RNAi Screening Center, 2011)
The deposit covers about 22,000 reagents; shown is an unselected part of those that have a named target and a result. Over the whole deposit, 116 (0.52%) were called active. 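Calls depend on retest data that are not deposited; infection was ranked per plate without normalising between plates; the unit of the infection score is not given.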 Raw values vary from plate to plate and are shown uncorrected. Entries without a mark were called inactive. The record does not give: the amount of reagent, the time to read-out.

Test: 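Fly genes whose silencing reduces dengue virus type 2 infection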 (primary screen)
Cell system: D.Mel-2 cells from Drosophila
Knock-down reagent: long dsRNA against Drosophila genes
Challenge: infection with dengue virus type 2; dose and infection time not stated
Measured: 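Cells stained for dengue envelope protein and imaged; percent of infected cells per well on duplicate plates, ranked by infection, with stained nuclei counted for cell number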
Scale: infection score: higher = more virus-infected cells; cell count: higher = more cells in the well
Call rule: 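Low infection ranks in the two replicates (chance level up to 0.065) followed by a retest with a 1.5-fold or larger significant decrease, p below 0.05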
Meaning of the calls: active = confirmed: knock-down lowers infection; inactive = not picked or not confirmed

target gene,amplicon,"infection score, replicate 1","infection score, replicate 2","cell count, replicate 1","cell count, replicate 2"
CG31704 (GeneID 318906),DRSC22118,5.09,25.7,6328,5952
CG13288 (GeneID 38665),DRSC09962,3.86,7.97,6223,5957
eEF1gamma (GeneID 44791),DRSC16659,4.1,4.5,3150,4736
eEF1gamma (GeneID 44791),DRSC23655,4.21,5.05,6270,6142
Ube4B (GeneID 34699),DRSC03277,14.9,8.7,6162,6494
eve (GeneID 36039),DRSC24980,2.77,2.27,5663,5715
Hrs (GeneID 33458),DRSC00549,2.4,1.03,5619,6226
Hrs (GeneID 33458),DRSC27741,4.37,10.3,6062,3158
CG32642 (GeneID 318137),DRSC18959,0.09 (active),0.01,6999,6940
CG32642 (GeneID 318137),DRSC27983,11.2,7.8,6423,5926
CG2680 (GeneID 31257),DRSC18466,5.66,3.74,5901,6230
Efhc1.2 (GeneID 37284),DRSC06027,0.77,1.33,522,526
Ccp84Ab (GeneID 40824),DRSC12587,4.26,24.6,5960,5016
Ccp84Ab (GeneID 40824),DRSC25096,1.9,2.1,6801,6196
PCB (GeneID 36020),DRSC05939,2.56,6.99,6101,6425
Pmvk (GeneID 35255),DRSC02032,15.1,16.8,1963,5241
Polr2L (GeneID 42942),DRSC14630,4.71,14,6222,3930
CG15873 (GeneID 37898),DRSC04277,6.52,7.95,6490,6818
PpD6 (GeneID 49780),DRSC00774,2.15,5.02,6560,6336
PpD6 (GeneID 49780),DRSC23331,1.27,4.68,6751,6772
dpr12 (GeneID 50320),DRSC04863,2.92,7.6,6240,6791
dpr12 (GeneID 50320),DRSC04892,4.19,8.15,6114,6796
Ir62a (GeneID 3885628),DRSC08250,4.08,5.09,6076,6145
hale (GeneID 40183),DRSC10882,2.43,3.98,6639,6584
hale (GeneID 40183),DRSC28772,12.7,7.09,3012,1510
Pask (GeneID 37824),DRSC04337,5.36,17.9,5728,5645
Pask (GeneID 37824),DRSC28829,30.2,22.4,5855,6136
nop5 (GeneID 33966),DRSC03582,3.38,6.55,5356,5051
Tbc1d22 (GeneID 42498),DRSC15867,2.7,2.07,5931,6189
Ilp6 (GeneID 31220),DRSC17906,0.99,19.7,706,6641
Phk-3 (GeneID 37997),DRSC04547,11,16.4,5214,4566
Impbeta11 (GeneID 36732),DRSC07525,4.22,9.13,6724,7195

Hits, among the entries above:
target gene,amplicon,"infection score, replicate 1","infection score, replicate 2","cell count, replicate 1","cell count, replicate 2"
CG32642 (GeneID 318137),DRSC18959,0.09 (active),0.01,6999,6940

More entries follow:
target gene,amplicon,"infection score, replicate 1","infection score, replicate 2","cell count, replicate 1","cell count, replicate 2"
Ulp1 (GeneID 32910),DRSC19339,2.84,5.35,6330,6820
CG14478 (GeneID 36964),DRSC06450,10.1,19.3,5656,5499
dop (GeneID 39686),DRSC10655,9.86,8.54,2242,2727
dop (GeneID 39686),DRSC29525,14.4,2.1,5619,1384
B-H2 (GeneID 32723),DRSC23012,2.19,2.72,6494,6573
B-H2 (GeneID 32723),DRSC25817,9.3,7.85,6267,5668
stol (GeneID 34921),DRSC01956,3.35,3.36,6359,6493
CG31600 (GeneID 318834),DRSC22541,3.19,1.39,6048,6755
CG31600 (GeneID 318834),DRSC30096,4.89,10.4,6386,5677
CG16700 (GeneID 32694),DRSC19755,1.75,1.63,6515,6433
Prosbeta4 (GeneID 34999),DRSC02603,,8.22,557,6008
sing (GeneID 32644),DRSC19530,4.3,3.67,6538,6787
pHCl-1 (GeneID 39730),DRSC09991,0.78,13.7,5755,5020
pHCl-1 (GeneID 39730),DRSC10589,0.62,2.88,5989,6040
Pp1-13C (GeneID 48531),DRSC20269,3.05,2.45,5740,5673
Pp1-13C (GeneID 48531),DRSC23305,2.13,7.5,6068,6324
Pp1-13C (GeneID 48531),DRSC27492,8.39,5.82,6433,6924
RpL7 (GeneID 34352),DRSC03417,5.12,2.34,1758,1713
RpL7 (GeneID 34352),DRSC29340,3.14,,827,331
Tsp42Eq (GeneID 35628),DRSC06180,8.33,10.8,6073,5371
C15 (GeneID 42544),DRSC13495,4.58,2.21,5870,6341
Upf1 (GeneID 32153),DRSC19667,6.58,2.17,4771,5342
CG14722 (GeneID 41419),DRSC14944,4.79,8.09,6434,6444
CG14722 (GeneID 41419),DRSC24593,20.8,6.43,6220,6317
Cyp9c1 (GeneID 37941),DRSC04607,4.05,5.96,6564,6455
CG7296 (GeneID 34469),DRSC03042,11.1,6.88,6122,5971
CG7296 (GeneID 34469),DRSC22343,2.86,3.28,6091,6431
CG7296 (GeneID 34469),DRSC25754,4.78,7.57,6464,5771
Muc96D (GeneID 318737),DRSC23213,1.09,10.2,6436,6707
Muc96D (GeneID 318737),DRSC28500,15.4,15.8,5529,5078
wech (GeneID 44653),DRSC06606,5.01,19.6,6610,5761
CG2906 (GeneID 35753),DRSC06841,17.6,8.13,5533,2817
Rpn12 (GeneID 39845),DRSC11275,1.78,0.97,2703,2567
Rpn12 (GeneID 39845),DRSC28589,2.42,2.36,413,509
B9d1 (GeneID 41888),DRSC14993,2,21,6261,5993
CG13950 (GeneID 33267),DRSC00368,4.16,3.36,6232,6003
CG13950 (GeneID 33267),DRSC27405,13.7,21.9,6541,4768
CG8788 (GeneID 35932),DRSC07267,17.2,9.6,5559,6396
spict (GeneID 34681),DRSC02157,17.9,10.7,6210,6513
spict (GeneID 34681),DRSC28072,18,3.07,6462,6668
QC (GeneID 38663),DRSC09736,3.29,2.2,6710,7103
CG5509 (GeneID 41539),DRSC15822,0.86,19.8,5597,5246
